Tested on: Influenza A/Perth/16/2009 (H3N2) virus
Format: cell-based
Conditions: drug alone; HBECs infected at 0.01 MOI

| Structure (SMILES) | TCID50 (viral titre) |
| --- | --- |
| Cc1cc(F)ccc1-c1nc(NC(CO)CO)nc2c1ccc(=O)n2-c1c(F)cccc1F [Dilmapimod] | neither PH797804 nor Dilmapimod treatment showed this effect |
| OCCCn1cc2c(-c3ccc(F)cc3)c(-c3ccncc3)c(-c3ccc(F)cc3)nc2n1 [Formula II] | did not significantly reduce |
| CCC(CC)O[C@@H]1C=C(C(=O)O)C[C@H](N)[C@H]1NC(C)=O [oseltamivir] | reduced |
| CNC(=O)c1ccc(C)c(-n2c(C)cc(OCc3ccc(F)cc3F)c(Br)c2=O)c1 [PH797804] | neither PH797804 nor Dilmapimod treatment showed this effect |

Source: patent publication US11969412B2, “Methods and compounds for the treatment or prevention of hypercytokinemia and severe influenza” (Poolbeg Pharma (UK) Limited, priority 2017, dated 2024)
